A mixed list of measured activities; the numbers were collected in NIAID ChemDB.

Shared fields: whole-cell or culture tests; species: Herpes simplex virus 1; read-out: inhibition

Percent inhibition refers to the dose given; in toxicity tests it is the harm to the cells. For "inactive" no cut-off is given. Neighbouring rows are from separate reports. An empty or dashed field is not shown.

structure	tested at	read by	cells	conditions	strain or isolate	result
O=c1ccn(N2C[C@H](CO)[C@H]2CO)c(=O)[nH]1	10 µg/mL	plaque count	VERO	-	-	0%
O=C1CC(c2ccccc2)n2nc(-c3cccnc3)nc2N1	50 µg/mL	plaque count	VERO	-	7401H	8%
CCCn1cnc(=N)c2[nH]cnc21	12 µg/mL	plaque count	BSC-1	-	-	0%
O=S(=O)(c1ccc(OCc2ccc(Br)cc2)cc1)c1ccc(OCc2ccc(Br)cc2)cc1	5 µM	plaque count	VERO	-	-	<50%
Cc1cccc(Cn2cnc(=N)c3[nH]cnc32)c1	12 µg/mL	plaque count	BSC-1	-	-	0%
Clc1c2cc(Br)ccc2nc2c1cnc1c2cnn1-c1ccccc1	50 µM	virus yield	-	-	-	30%
O=c1[nH]c(=O)n([C@H]2C[C@H](O)[C@@H](CO)O2)cc1/C=C/C(F)(F)F	10 µM	plaque count	HELA BU	-	KOS	>99%
O=C1C(=O)N([C@@H]2O[C@H](COCc3ccccc3)[C@@H](OCc3ccccc3)[C@H]2OCc2ccccc2)c2cc(Br)cc(Br)c21	50 µM	virus yield	VERO	-	-	66%
C=Cc1cn([C@H]2C[C@H](O)[C@@H](CO)O2)c(=O)[nH]c1=O	10 µM	plaque count	HeLa	-	KOS	>99%
Cc1ccc(-n2nc3c4ccccc4n(C4O[C@H](CO)[C@@H](O)[C@H]4O)cc-3c2=O)cc1	100 µM	virus yield	VERO	-	-	20%
[N-]=[N+]=NC[C@H]1O[C@@H](n2cc(Cl)c(=O)[nH]c2=O)C[C@@H]1O	100 µM	plaque count	VERO	-	-	19%
C=Cc1c(C)c2cc3nc(c(CC(=O)O)c4nc(cc5[nH]c(cc1[nH]2)c(C)c5CC)C(C)=C4C(=O)O)[C@@H](CCC(=O)O)[C@@H]3C	45.33 µM	plaque count	-	-	KOS	90%
O=C(NNCc1cccc(O)c1O)c1ccccc1O	0.65 µM	PCR	HFF	-	KOS	90%
COc1ccc(C2CC(=O)Nc3nc(-c4cccnc4)nn32)cc1	50 µg/mL	plaque count	VERO	-	7401H	4%
Clc1cccc2nc3c(cnc4c3cnn4-c3ccccc3)c(Cl)c12	50 µM	virus yield	-	-	-	80%
Cc1cn([C@@H]2O[C@H](CO)[C@@H](O)[C@@H]2F)c(=O)[nH]c1=O	0.1 µM	virus yield	VERO	-	F	45%
CC(C)C[C@H](NC(=O)[C@@H]1O[C@H]1C(=O)O)C(=O)NCCCCN=C(N)N	20 µM	plaque count	CV-1	-	Fukuda	0%
NC[C@H]1O[C@@H](n2cc(Cl)c(=O)[nH]c2=O)C[C@@H]1O	100 µM	plaque count	VERO	-	-	71%
CCCCCCCCCCCC(=O)OC[C@H](CO[C@@H]1O[C@H](CO)[C@@H](O)[C@H](O)[C@H]1O)OC(=O)CCCCCCCCCCC	50 µg/mL	plaque count	VERO	-	KOS	80%
Cc1ccc2c(c1)c1nn(-c3ccc(F)cc3)c(=O)c-1cn2C1O[C@H](CO)[C@@H](O)[C@H]1O	100 µM	virus yield	VERO	-	-	15%
Nc1nc(=O)n([C@@H]2O[C@H](CO)[C@@H](O)[C@@H]2F)cc1I	0.01 µM	virus yield	VERO	-	F	61%
CCCCCCCC/C=C\CCCCCCCC(=O)OC(COC(=O)CCCCCCCCCCC)CO[C@@H]1O[C@H](CO)[C@@H](O)[C@H](O)[C@H]1O	50 µg/mL	plaque count	VERO	-	KOS	13%
Nc1nc2c(ncn2COCCO)c(=O)[nH]1	5 µg/mL	virus yield	HL	-	F	97.5%
NC(N)N/N=C1/C/C(=N\NC(N)N)c2ccccc21	30 µM	plaque count	HEP-2	-	MP	inactive
Nc1nc(=S)c2[nH]c(-c3cscn3)nc2[nH]1	1 µg/mL	plaque count	VERO	-	-	0%
O=[N+]([O-])c1ccccc1S(=O)(=O)n1c(CCc2ccccn2)nc2cc(Cl)c(Cl)cc21	2 µg/mL	plaque count	-	-	-	0%
Cc1ccc(NC(=S)Nc2ccc(Cl)cc2)cc1NC(=S)Nc1ccc(Cl)cc1	5 µM	plaque count	VERO	-	-	0%
CN1C(=O)NC(=O)N([C@H]2C[C@H](O)[C@@H](CO)O2)C1(C)C	50 µM	plaque count	BHK-21	-	42D	99%
O=c1[nH]c(=O)n([C@H]2C[C@H](O)[C@@H](CO)O2)cc1CCO	100 µg/mL	cytopathic effect	HEP-2	-	-	≥25%
CCCCCc1nc2n(n1)C(c1ccccc1)CC(=O)N2	50 µg/mL	plaque count	VERO	-	7401H	88%
CCCCCCCCCCCCCCCCCCCCCC(=O)OC(COC(=O)CCCCCCCCCCCCCCCCC)CO[C@@H]1O[C@H](CO)[C@@H](O)[C@H](O)[C@H]1O	50 µg/mL	plaque count	VERO	-	KOS	inactive
C#C[C@H]1O[C@@H](n2cc(C)c(=O)[nH]c2=O)C[C@@H]1O	25 µM	plaque count	HELA BU	-	KOS	4%
O=[N+]([O-])c1ccc(NC(=S)Nc2ccc(Oc3ccc(NC(=S)Nc4ccc([N+](=O)[O-])cc4)cc3)cc2)cc1	5 µM	plaque count	VERO	-	-	0%
CN(C)CCN1C(=O)c2cccc3cc(N)cc(c23)C1=O	4 µg/mL	plaque count	VERO	-	HFEM	75%
NC[C@H]1O[C@@H](n2ccc(=O)[nH]c2=O)C[C@@H]1O	100 µM	plaque count	VERO	-	-	0%
Nc1nc2c(ncn2COCCO)c(=O)[nH]1	0.3 µg/mL	virus yield	VERO	-	7401H	97.91%
O=c1[nH]cnc2c1nnn2[C@@H]1c2ccccc2C[C@H]1O	100 µM	plaque count	VERO	-	F	0%
O=c1[nH]c(=O)n([C@@H]2C[C@H](O)[C@@H](CO)O2)cc1CCBr	3 µg/mL	cytopathic effect	HEP-2	-	-	≥25%
CC(C)[C@H](NC(=O)[C@H](CCCN=C(N)N)NC(=O)N[C@@H](Cc1ccccc1)C(=O)O)C(=O)N[C@H](C=O)CCCN=C(N)N	20 µM	plaque count	CV-1	-	Fukuda	38%
O=c1c2cccc(Cl)c2[nH]c2cc(O)cc(O)c12	10 µM	-	-	-	KOS	50%
CCCCC/C=C\C/C=C\CCCCCCCC(=O)OCC(CO[C@@H]1O[C@H](CO)[C@H](O)[C@H](O)[C@H]1O)OC(=O)CCCCCCC/C=C\C/C=C\CCCCC	50 µg/mL	plaque count	VERO	-	KOS	55%
Cc1cccc(NS(=O)(=O)c2ccc(Oc3ccc(S(=O)(=O)Nc4cccc(C)c4)cc3)cc2)c1	5 µM	plaque count	VERO	-	-	0%
COc1ccc(C2CC(=O)Nc3nc(-c4ccc5ccccc5c4)nn32)cc1	50 µg/mL	plaque count	VERO	-	7401H	16%
O=c1ccn([C@@H]2O[C@H](CO)[C@@H](O)[C@@H]2F)c(=O)[nH]1	0.5 µM	virus yield	VERO	-	F	82%
CSc1cnc(=O)n([C@H]2C[C@H](O)[C@@H](CO)O2)c1	100 µM	plaque count	HeLa	-	KOS	57%
Fc1ccc(N2CCCCC2)c(NC(=S)c2ccncc2)c1	4 µM	plaque count	VERO	-	F	80%
Cc1ccc2c(c1)c1nn(-c3ccc(Cl)cc3)c(=O)c-1cn2C1O[C@H](CO)[C@@H](O)[C@H]1O	100 µM	virus yield	VERO	-	-	35%
CCCc1cn([C@H]2C[C@H](O)[C@@H](CO)O2)c(=O)[nH]c1=O	25 µM	plaque count	HeLa	-	KOS	>99%
Cc1ccc2ncc3c(=O)n(-c4ccc(F)cc4)[nH]c3c2c1	100 µM	virus yield	VERO	-	-	31%
C/C=C/c1cn([C@H]2C[C@H](O)[C@@H](CO)O2)c(=O)[nH]c1=O	1 µM	plaque count	VERO	-	C42PFA-R	91%
O=C1Nc2ccc(F)cc2C1=O	50 µM	virus yield	VERO	-	-	60%
NC(N)N/N=C1C=C/C(=N/NC(N)N)C\1	30 µM	plaque count	HEP-2	-	MP	inactive
Nc1[nH]c(=S)nc2c1C(c1ccc(Cl)cc1)c1c([nH]c(=S)[nH]c1=O)N2	10 µg/mL	-	VERO	-	-	30%
Cc1ccnc2nc3c(cnc4c3cnn4-c3ccccc3)c(Cl)c12	50 µM	virus yield	-	-	-	65%
CNc1[nH]c(=S)nc2c1C(c1ccc([N+](=O)[O-])cc1)c1c([nH]c(=S)[nH]c1=O)O2	10 µg/mL	-	VERO	-	-	50%
Clc1c2ccccc2nc2c1cnc1c2cnn1-c1ccccc1	50 µM	virus yield	-	-	-	20.6%
COc1ccc(NC(=O)Nc2ccc([N+](=O)[O-])cc2)cc1NC(=O)Nc1ccc([N+](=O)[O-])cc1	30 µM	plaque count	VERO	-	-	>50%
O=C1Nc2ccc(Cl)cc2C1=O	50 µM	virus yield	VERO	-	-	28%
COc1cccc2c1C(=O)c1c(O)c3c(c(O)c1C2=O)C[C@@](O)(C(=O)CO)C[C@@H]3O[C@H]1C[C@H](N)[C@H](O)[C@H](C)O1	0.5 µM	virus yield	VERO	-	-	15%
Nc1ccn([C@H]2O[C@@H](CO)[C@H](O)[C@H]2F)c(=O)n1	0.5 µM	virus yield	VERO	-	F	40%
O=C1CC(c2ccc([N+](=O)[O-])cc2)n2nc(-c3ccncc3)nc2N1	50 µg/mL	plaque count	VERO	-	7401H	0%
CC(=O)OC[C@H]1O[C@H](O[C@H]2O[C@@H](COC(=O)/C=C/c3ccccc3)[C@H](O)C2(COC(C)=O)OC(=O)/C=C/c2ccccc2)[C@H](OC(C)=O)[C@@H](O)[C@@H]1OC(C)=O	100 µg/mL	plaque count	VERO	-	7401H	16.9%
COc1ccc(NC(=O)Nc2ccc(C)cc2)cc1NC(=O)Nc1ccc(C)cc1	30 µM	plaque count	VERO	-	-	<50%
Cc1ccc2ncc3c(=O)n(-c4ccccc4)[nH]c3c2c1	100 µM	virus yield	VERO	-	-	20%
CC(=O)O[C@]1(C)/C=C/C[C@@H](C)/C=C/[C@@]2(C)CC[C@@H](C(C)(C)O)[C@@H]2[C@@H](O)C1	15 µM	cytopathic effect	VERO	-	-	87%
CC(=O)OC(C)C1=C(O)C2=C(C(=O)C1=O)[C@@]1(C)CCCC(C)(C)[C@@H]1C[C@H]2O	0.2 µg/mL	plaque count	VERO	-	-	inactive
C/C=C/c1cn([C@H]2C[C@H](O)[C@@H](CO)O2)c(=O)[nH]c1=O	10 µM	plaque count	HELA BU	-	B2006 (TK-)	0%
Cc1ccc(Cn2cnc(=N)c3[nH]cnc32)cc1	12 µg/mL	plaque count	BSC-1	-	-	0%
Nc1nc2c(ncn2COC(CO)CO)c(=O)[nH]1	200 µM	plaque count	WI-38	-	CL101	90%
NC(N)N/N=C1/c2ccccc2/C(=N\NC(N)N)C1[N+](=O)[O-]	30 µM	plaque count	HEP-2	-	MP	inactive
C=Cc1c(C)c2cc3nc(c(C(=O)O)c4nc(cc5[nH]c(cc1[nH]2)c(C)c5CC)C(C)=C4C(=O)O)[C@@H](CCC(=O)O)[C@@H]3C	45.33 µM	plaque count	VERO	1% FBS	-	90%
O=c1[nH]c(=O)n([C@H]2C[C@H](O)[C@@H](CO)O2)cc1CCI	1 µg/mL	cytopathic effect	HEP-2	-	-	≥25%
Cc1ccccc1Cn1cnc(=N)c2[nH]cnc21	12 µg/mL	plaque count	BSC-1	-	-	0%
O=C(O)CP(=O)(O)O	200 µg/mL	plaque count	BSC-1	-	-	40%
CCCCn1cnc(=N)c2[nH]cnc21	6 µg/mL	plaque count	BSC-1	-	-	0%
Cc1ccc2ncc3c(=O)n(-c4ccc(Cl)cc4)[nH]c3c2c1	100 µM	virus yield	VERO	-	-	27%